The text below walks through data of US9788541B2, “Antibacterial surfactant/microgel formulations, methods of making and methods of using the same” (The University of Toledo, priority 2012, dated 2017).

Each structure is given as a SMILES string.

The series is described as follows: Isothermal titration calorimetry of surfactant binding to microgels.

Turning to `CCCCCCCCCCCCOS(=O)(=O)[O-].[Na+]` [SDS, sodium dodecyl sulfate], for the setting “ITC, microgel dispersion, 10 mM NaCl”, the “surfactant concentration at saturation of cationic binding sites” value is given as “about 2 mmol/kg”. Besides, the exothermic binding heat is, setting by setting: (SDS concentration exceeding about 2 mmol/kg (after saturation of cationic binding sites)) 0.17 to 0.19 kcal/mol; (titrated into microgel dispersion, 10 mM NaCl, below saturation) “approximately 5 kJ/mol of added SDS”.
